# Strings that start with PEPTIDE1 are HELM notation: dots part the residues, brackets hold end groups and non-standard residues.
# Assay: peptide made by a vendor (peptide synthesis; PAL-PEG-PS resin)
# Details: whole synthesis
substance,measurement,value
PEPTIDE1{Y.S.P.W.T.N.F.[am]}$$$$V2.0,final HPLC purity,99%

# From patent US7824691B2 (priority 2005, dated 2010)
